Data taken from article PMC5453625, “Structural basis of nectin-1 recognition by pseudorabies virus glycoprotein D” (2017).

Target: swine nectin-1 ectodomain (amino acids 30-335) (swine) (UniProt Q9GL76)
Experiment: SPR

PRV gD337 (pseudorabies virus glycoprotein D ectodomain, residues 1-337) (domain or fragment)
Kd: 301 nM
koff: 0.044 s⁻¹
kon: 146000 M⁻¹ s⁻¹
